Test results: patent US7709004B2 (Bionor Immuno AS, priority 1999, dated 2010)

Columns and labels:
[1] = general procedure: peptide synthesis; Tenta Gel P RAM, theoretical loading 0.20 meq/g (RAPP POLYMERE GmbH); details: analytical HPLC
[2] = peptide synthesis; Tenta Gel P RAM, theoretical loading 0.20 meq/g (RAPP POLYMERE GmbH); details: whole synthesis, analytical HPLC

Substance	final HPLC purity ([1]; whole synthesis)	also measured
KALGPGATLQTPWTACQGVG - NH2	87%	–
PEPTIDE1{K.A.L.G.P.G.A.T.L.Q.T.P.W.T.A.C.Q.G.V.G.[am]}|PEPTIDE2{W.I.I.P.G.L.N.P.L.V.G.G.G.K.L.Y.S.P.T.S.I.L.C.G.[am]}$PEPTIDE1,PEPTIDE2,16:R3-23:R3$$$V2.0	–	final HPLC purity ([1]; conjugation step): 92%
RAIPIPAGTLLSGGGRAIYKRWAILG	–	final HPLC purity [2]: more than 95%
RALGPAATLQTPWTASLGVG	more than 95%	–
R F I I P NI FTALSGGRRALLYGATPYAIG	more than 95%	–
RNIPIPVGDIYGGGDIYKRWQALCL	–	final HPLC purity [2]: 85%
RWLLLGLNPLVGGGRLYSPTSILG	more than 95%	–
WIIPGLNPLVGGGKLYSPTSILCG-NH2	95%	–

For some assays here: Strings that start with PEPTIDE1 are HELM notation: dots part the residues, brackets hold end groups and non-standard residues.
